Compound potency records, mixed from different reports. Data source: NIAID ChemDB in PubChem.

Shared fields: whole-cell or culture tests; organism: Herpes simplex virus 2; read by: plaque count; measure: EC50

An empty or dashed field is not shown. Neighbouring rows are from separate reports. ECn is the concentration giving n% inhibition of infection, replication or growth.

| compound | cells | strain | result |
|---|---|---|---|
| O=[N+]([O-])c1c(-c2ccccc2)c(-c2ccccc2)n(COCCO)c1-c1ccccc1 | VERO |  | 40 µM |
| CCCCCCCC/C=C\CCCCCCCOCCOP1(=O)CO[C@@H](Cn2ccc(N)nc2=O)CO1 | HFF | MS | 0.01 µM |
| Nc1nc2c(ncn2COCCO)c(=O)[nH]1 | VERO | 91075 | 0.5 µM |
| CCOC(=O)c1c([N+](=O)[O-])c(-c2ccccc2)n(COCCOC(C)=O)c1-c1ccccc1 | VERO |  | >96 µM |
| Nc1ncnc2c1ncn2[C@@H]1C[C@H](CO)[C@@H](O)[C@@H]1O | VERO | G-FIAU-C1 | 39 µM |
| Nc1ccn(C[C@H]2COP(=O)(O)CO2)c(=O)n1 | HFF | SR | 82.8 µM |
| O=C(O)P(=O)(O)O | MEF | MS | 32.8 µg/mL |
| Cc1cn([C@@H]2O[C@H](CO)[C@@H](O)[C@@H]2F)c(=O)[nH]c1=O | VERO | G-FAC-C1 | 8.6 µM |
| Cn1cc(C(=O)NCc2ccc(Cl)cc2)c(=O)c2cc(/C=C\CO)cc(F)c21 | VERO | MS-M1 | >20 µM |
| c1ccc(-c2cc3ccccn3c2)nc1 | VERO | 186 | >100 µM |
| Nc1ccn(C[C@@H](CO)OCP(=O)(O)O)c(=O)n1 | HFF | MS | 5.1 µM |
| COc1ccc2nc3n[nH]c(C)c3c(SCc3ccco3)c2c1 | FS-85 |  | 0.7 µg/mL |
| Cc1cn([C@@H]2O[C@H](CO)[C@@H](O)[C@@H]2F)c(=O)[nH]c1=O | VERO | 333 | 0.4 µM |
| Nc1nc2c(ncn2COCCO)c(=O)[nH]1 | VERO | G | 0.5 µM |
| O=C(NCc1ccc(Cl)cc1)c1cn2c3c(cc(CN4CCOCC4)cc3c1=O)OC(c1cccnc1)C2 | HFF | 13076 (WILD TYPE) | 5.6 µM |
| CC(=O)OC[C@H]1[C@H](COC(C)=O)[C@@H](COC(C)=O)O[C@H]1n1cnc2c(N)ncnc21 | MEF | Clinical isolate HEETER | 172 µM |
| CC(=O)OCCOCn1c(-c2ccccc2)c(Br)c(-c2ccccc2)c1-c1ccccc1 | VERO |  | >16 µM |
| CCCCCCCCCCCCCCCCCOC[C@H](COP1(=O)CO[C@@H](Cn2ccc(N)nc2=O)CO1)OCc1ccccc1 | HFF | MS | 0.2 µM |
| Nc1nc2c(ncn2COCCO)c(=O)[nH]1 | HFF | MS | 0.8 µg/mL |
| Nc1nc2c(ncn2CCCCO)c(=O)[nH]1 | VERO | 91075 | 8 µM |
| Nc1nc(=O)n([C@@H]2O[C@H](CO)[C@@H](O)[C@@H]2F)cc1I | HELF | HG-52 | 0.023 µg/mL |
| COCc1cn([C@H]2C[C@H](O)[C@@H](CO)O2)c(=O)nc1N | VERO | X-265 | 130 µM |
| O=c1[nH]c(=O)n([C@@H]2O[C@H](CO)[C@@H](O)[C@@H]2F)cc1I | VERO | G-FIAC-C1 | 9 µM |
| O=c1[nH]c(=O)n([C@H]2C[C@H](O)[C@@H](CO)O2)cc1I | HELF | HG-52 | 6.2 µg/mL |
| Nc1nc2c(ncn2COC(CO)CO)c(=O)[nH]1 | VERO | MS | 1.8 µM |
| Cc1cn([C@@H]2O[C@H](CO)[C@@H](O)[C@@H]2O)c(=O)[nH]c1=O | VERO | MS-M1 | 3.6 µM |
| Nc1ccn([C@H]2O[C@@H](CO)[C@H](O)[C@H]2F)c(=O)n1 | VERO | G-FMAU-C1 | 3.4 µM |
| Cn1cc(C(=O)NCc2ccc(Cl)cc2)c(=O)c2cc(CN3CCOCC3)ccc21 | HFF | L6089158 ACV resistant | 2.8 µM |
| O=c1[nH]c(=O)n([C@@H]2O[C@H](COP(=O)(O)O)[C@@H](O)[C@@H]2O)cc1/C=C/Br | HELF | HG-52 | 26.9 µg/mL |
| CCCCCCCC/C=C\CCCCCCCCOCCOP(=O)(O)CO[C@H](CO)Cn1ccc(N)nc1=O | HFF | G | 0.06 µM |
| Nc1nc2c(ncn2CCCC(CO)CO)c(=O)[nH]1 | VERO | 91075 | 7 µM |
| Nc1ncnc2c1ncn2[C@@H]1O[C@H](CO)[C@@H](O)[C@@H]1O | MEF | Clinical isolate HEETER | 38 µM |
| Nc1nc2c(ncn2CCC(CO)CO)c(=O)[nH]1 | MRC-5 | 186 (TK-) | 230 µg/mL |
| Cn1cc(C(=O)NCc2ccc(Cl)cc2)c(=O)c2cc(CN3CCOCC3)ccc21 | VERO | 186-M1 | >20 µM |
| O=c1[nH]c(=O)n([C@@H]2O[C@H](CO)[C@@H](O)[C@@H]2O)cc1/C=C/Cl | HELF | MS | 19.5 µg/mL |
| Nc1nc2c(ncn2C/C=C\CO)c(=O)[nH]1 | VERO | B4327 | 3.7 µM |
| Clc1cccn2cc(-c3ccccc3)cc12 | VERO | 186 | >100 µM |
| O=C(O)c1c([N+](=O)[O-])c(-c2ccccc2)n(COCCO)c1-c1ccccc1 | VERO |  | >300 µM |
| OC[C@H]1OC(c2c(-c3ccccc3)cc3c(Cl)cc(C(F)(F)F)cn23)[C@H](O)[C@@H]1O | VERO | 186 | >100 µM |
| N#Cc1c(N)c(-c2ccccc2)n(COCCO)c1-c1ccccc1 | VERO |  | >300 µM |
| O=c1ccn([C@@H]2O[C@H](CO)[C@@H](O)[C@@H]2F)c(=O)[nH]1 | VERO | G-FIAC-C1 | 3.5 µM |
| Cc1cn([C@@H]2O[C@H](CO)[C@H]2CO)c(=O)[nH]c1=O | HFF | 12247 (TK altered) | 81 µg/mL |
| CCOC(=O)c1c([N+](=O)[O-])c(-c2ccccc2)n(COCCOC(C)=O)c1C | VERO |  | >169 µM |
| FC(F)(F)Oc1ccc(-c2cc3ccccn3c2)cc1 | VERO | 186 | >100 µM |
| CC(=O)OCCOCn1c(-c2ccccc2)cc([N+](=O)[O-])c1-c1ccccc1 | VERO |  | >66 µM |
| CCCCCCCCCCCCOCCCOP1(=O)CO[C@@H](Cn2ccc(N)nc2=O)CO1 | HFF | G | >1 µM |

The last 6 rows once more:

| compound | cells | strain | result |
|---|---|---|---|
| O=c1ccn([C@@H]2O[C@H](CO)[C@@H](O)[C@@H]2F)c(=O)[nH]1 | VERO | G-FIAC-C1 | 3.5 µM |
| Cc1cn([C@@H]2O[C@H](CO)[C@H]2CO)c(=O)[nH]c1=O | HFF | 12247 (TK altered) | 81 µg/mL |
| CCOC(=O)c1c([N+](=O)[O-])c(-c2ccccc2)n(COCCOC(C)=O)c1C | VERO |  | >169 µM |
| FC(F)(F)Oc1ccc(-c2cc3ccccn3c2)cc1 | VERO | 186 | >100 µM |
| CC(=O)OCCOCn1c(-c2ccccc2)cc([N+](=O)[O-])c1-c1ccccc1 | VERO |  | >66 µM |
| CCCCCCCCCCCCOCCCOP1(=O)CO[C@@H](Cn2ccc(N)nc2=O)CO1 | HFF | G | >1 µM |